Measurements: patent publication US20190085033A1

Molecular target: BG505
Assay: SPR

With PGT128 as the substance, how does the Kd read?
The Kd was 8 nM.
